A mixed list of measured activities; the numbers were collected in NIAID ChemDB.

Shared fields: growth or infection tests

A number after MIC or MFC names an inhibition level or a share of isolates. Blank or dashed fields: not listed here. ECn is the concentration giving n% inhibition of infection, replication or growth. Two numbers with a dash give a range or band. Zone: diameter of growth inhibition. Inhibition is in % at the dose shown (toxicity tests: loss of growth or viability). Rows are shuffled and stem from different studies.

{"SMILES": "COc1ccccc1Cn1ccc2nc(-c3ccccc3)nc-2c1", "strain or isolate": "PE515", "agent": "Bovine viral diarrhea virus", "read-out": "EC50", "cells": "MDBK", "read by": "cytopathic effect", "value": "0.016 µg/mL"}
{"SMILES": "O=C(NCc1ccccc1-c1ncccn1)c1c2n(c(=O)n1-c1ccc(-n3cccn3)cc1)CCN(C(=O)c1ccc(Br)c(Cl)c1)C2", "agent": "Hepatitis B virus", "read-out": "EC50", "cells": "HepG2.117", "read by": "PCR", "value": "<0.1 µM"}
{"SMILES": "N=C(N)c1ncn([C@@H]2O[C@H](CO)[C@@H](O)[C@H]2O)n1", "agent": "Dengue virus", "read-out": "EC50", "value": ">100 µM"}
{"SMILES": "CC(=O)N[C@H]1[C@H]([C@H](O)[C@H](O)CO)OC(C(=O)O)=C[C@@H]1N=C(N)N", "strain or isolate": "H1N1 A/Beijing/262/95", "agent": "Influenza A virus", "read-out": "EC50", "cells": "MDCK", "value": "2.6 µM"}
{"SMILES": "CC(N)C12CC3CC(CC(C3)C1)C2", "strain or isolate": "H3N2 10 french isolates", "agent": "Influenza A virus", "read-out": "EC50", "cells": "VERO", "read by": "ELISA", "value": "0.07 µg/mL"}
{"SMILES": "CO/N=C1\\CN(c2nc3c(cc2F)c(=O)c(C(=O)O)cn3C2CC2)CC1CN", "strain or isolate": "13 strains", "agent": "Escherichia coli", "read-out": "MIC90", "value": "0.25 µg/mL"}
{"SMILES": "CC(=O)NC[C@H]1CN(c2ccc(-c3cnn(C(C)=O)c3)c(F)c2)C(=O)O1", "strain or isolate": "UC12084 (methicillin-resistant)", "agent": "Staphylococcus epidermidis", "read-out": "MIC", "value": "1 µg/mL"}
{"SMILES": "c1ccc(CCCCn2ccc3nc(-c4ccccc4)nc-3c2)cc1", "strain or isolate": "PE515", "agent": "Bovine viral diarrhea virus", "read-out": "EC50", "cells": "MDBK", "read by": "cytopathic effect", "value": "0.009 µg/mL"}
{"SMILES": "CCC(=O)C(CCCCCCc1ccc(OCCN(CC)CC)cc1)C(=O)CC", "agent": "Equine herpesvirus 4", "read-out": "MIC", "value": ">50 µg/mL"}
{"SMILES": "Clc1ccccc1C(c1ccccc1)(c1ccccc1)n1ccnc1", "dose": "10 µg/disc", "agent": "Aspergillus ochraceus", "read-out": "zone", "read by": "agar diffusion", "value": "30 mm"}
{"SMILES": "Cc1nc(NCCCCNc2ccnc3cc(Cl)ccc23)nc(-c2ccccc2[N+](=O)[O-])c1C(=O)OC(C)C", "strain or isolate": "29/10893", "agent": "Cryptococcus gattii", "read-out": "MIC99", "value": "4 µg/mL"}
{"SMILES": "Fc1ccc(Cn2ccc3nc(-c4c(F)cccc4F)nc-3c2)cc1", "strain or isolate": "PE515", "agent": "Bovine viral diarrhea virus", "read-out": "EC50", "cells": "MDBK", "read by": "cytopathic effect", "value": "0.2 µg/mL"}
{"SMILES": "CCOP(=O)(O)CCC(CO)OCn1cnc2c(=O)[nH]c(N)nc21", "strain or isolate": "22122", "agent": "Guinea pig cytomegalovirus", "read-out": "EC50", "cells": "MRC-5", "read by": "plaque count", "value": "56 µg/mL"}
{"SMILES": "O=C(NCc1ccccc1-c1cccnn1)c1c2n(c(=O)n1-c1ccc(OCC(F)(F)F)cc1)CCN(C(=O)c1ccc(Br)c(Cl)c1)C2", "agent": "Hepatitis B virus", "read-out": "EC50", "cells": "HepG2.117", "read by": "PCR", "value": "<0.1 µM"}
{"SMILES": "Oc1ccccc1N=Cc1ccccc1", "strain or isolate": "23/10993", "agent": "Cryptococcus gattii", "read-out": "MIC99", "value": "5.7 µg/mL"}
{"SMILES": "O=C(NCc1ccccc1)c1c2n(c(=O)n1-c1ccc(-n3ccnc3)cc1)CCN(C(=O)c1ccc(Br)c(Cl)c1)C2", "agent": "Hepatitis B virus", "read-out": "EC50", "cells": "HepG2.117", "read by": "PCR", "value": "0.5–5 µM"}
{"SMILES": "O=C(O)P(=O)(O)O", "strain or isolate": "SA-11", "agent": "Simian rotavirus", "read-out": "EC50", "cells": "MA-104", "read by": "cytopathic effect", "value": "10–1000 µM"}
{"SMILES": "CCOC(=O)c1c(C)nc(NCCCNc2ccnc3cc(Cl)ccc23)nc1-c1ccccc1", "strain or isolate": "ATCC 24065", "agent": "Cryptococcus gattii", "read-out": "MIC99", "value": "8 µg/mL"}
{"SMILES": "CC(=O)ONc1ccc(S(=O)(=O)N(Cc2ccccc2)C[C@@H](O)[C@H](Cc2ccccc2)NC(=O)CCc2c[nH]c3ccccc23)cc1", "agent": "SIV", "read-out": "EC50", "cells": "CEM", "read by": "MTT", "value": "8.4 µM"}
{"SMILES": "CC(=O)NC[C@H]1CN(c2ccc(-c3ccn[nH]3)c(F)c2)C(=O)O1", "strain or isolate": "UC12084 (methicillin-resistant)", "agent": "Staphylococcus epidermidis", "read-out": "MIC", "value": "1 µg/mL"}
{"SMILES": "CCC(=O)C(CCCCCCc1ccc(O)cc1Cl)C(=O)CC", "agent": "Equine herpesvirus 4", "read-out": "MIC", "value": ">50 µg/mL"}
{"SMILES": "CCCCCCCCCCCCOC(=O)[C@]1(O)C[C@@H](O)[C@@H](O)[C@H](OC(=O)/C=C/c2ccc(O)c(O)c2)C1", "strain or isolate": "Speare UMIP 1142.76", "agent": "Aspergillus parasiticus", "read-out": "MIC80", "value": "1500 µg/mL"}
{"SMILES": "Cn1cc(C(=O)NCc2ccc(Cl)cc2)c(=O)c2cc(CN3CCOCC3)ccc21", "agent": "Rhesus cytomegalovirus", "read-out": "EC50", "cells": "HFF", "read by": "plaque count", "value": "1 µM"}
{"SMILES": "COc1cc(O)c2c(=O)cc(-c3ccccc3)oc2c1CC=C(C)C", "strain or isolate": "Type 2/Mexican isolate", "dose": "25 µM", "agent": "Dengue virus", "read-out": "inhibition", "cells": "LLC-MK2", "read by": "plaque count", "value": "76.9%"}
{"SMILES": "Oc1ccccc1N=Cc1ccc2c(c1)OCO2", "strain or isolate": "L24/01", "agent": "Cryptococcus gattii", "read-out": "MIC99", "value": "8 µg/mL"}
{"SMILES": "CC(C)CN(C[C@@H](O)[C@H](Cc1ccccc1)NC(=O)CCN1C(=O)c2ccccc2C1=O)S(=O)(=O)c1ccc(Br)cc1", "agent": "SIV", "read-out": "EC50", "cells": "CEM", "read by": "MTT", "value": "3.8 µM"}
{"SMILES": "O=c1[nH]cnc2c1ncn2[C@@H]1O[C@H](CO)[C@@H](O)[C@H]1O", "dose": "1000 µM", "agent": "Pneumocystis carinii", "read-out": "inhibition", "value": "0%"}
{"SMILES": "C/C=C/c1cn([C@H]2C[C@H](O)[C@@H](CO)O2)c(=O)[nH]c1=O", "strain or isolate": "KJ502", "dose": "10 µM", "agent": "Herpes simplex virus 1", "read-out": "inhibition", "cells": "VERO", "read by": "plaque count", "value": "92%"}
{"SMILES": "Brc1ccc(Cn2ccc3nc(-c4ccccc4)nc-3c2)cc1", "strain or isolate": "NADL (TYPE 1)", "agent": "Bovine viral diarrhea virus", "read-out": "EC50", "cells": "MDBK", "read by": "MTS", "value": "0.04 µM"}
{"SMILES": "C[C@@H](NC(=O)c1c2n(c(=O)n1-c1ccc(OCC(F)(F)F)cc1)CCN(C(=O)c1ccc(Br)c(Cl)c1)C2)c1ccc(OCC#N)cc1F", "agent": "Hepatitis B virus", "read-out": "EC50", "cells": "HepG2.117", "read by": "PCR", "value": "0.5–5 µM"}
{"SMILES": "CCOC(=O)c1cnc(NCCCCNc2ccnc3cc(Cl)ccc23)nc1C", "strain or isolate": "23/10993", "agent": "Cryptococcus gattii", "read-out": "MIC99", "value": "5.7 µg/mL"}
{"SMILES": "O=c1[nH]c(=O)n([C@H]2C[C@H](O)[C@@H](CO)O2)cc1/C=C/Br", "strain or isolate": "C42", "dose": "0.1 µM", "agent": "Herpes simplex virus 1", "read-out": "inhibition", "cells": "VERO", "read by": "plaque count", "value": ">99%"}
{"SMILES": "CC(C)CN(C[C@@H](O)[C@H](Cc1ccccc1)NC(=O)CCc1c[nH]c2ccccc12)S(=O)(=O)c1ccc(Br)cc1", "agent": "SIV", "read-out": "EC50", "cells": "CEM", "read by": "MTT", "value": "12 µM"}
{"SMILES": "C[C@@H](c1ccccc1)N1C[C@H](O)Cn2c(c3n(c2=O)CCN(C(=O)c2ccc(Br)c(Cl)c2)C3)C1=O", "agent": "Hepatitis B virus", "read-out": "EC50", "cells": "HepG2.117", "read by": "PCR", "value": "0.1–0.5 µM"}
{"SMILES": "CC(C)CN(C[C@@H](O)[C@H](Cc1ccccc1)NC(=O)COc1ccc2ccccc2c1)S(=O)(=O)c1ccc(Br)cc1", "agent": "SIV", "read-out": "EC50", "cells": "CEM", "read by": "MTT", "value": "12.3 µM"}
{"SMILES": "C/C=C/c1cn([C@@H]2O[C@H](CO)[C@@H](O)[C@@H]2O)c(=O)[nH]c1=O", "strain or isolate": "TK-", "dose": "100 µM", "agent": "Herpes simplex virus 1", "read-out": "inhibition", "cells": "VERO", "read by": "plaque count", "value": "<0%"}
{"SMILES": "CCC(=O)C(CC/C=C/CCc1ccc(S(N)(=O)=O)cc1)C(=O)CC", "agent": "Equine herpesvirus 4", "read-out": "MIC", "value": ">50 µg/mL"}
{"SMILES": "CC(=O)ONc1ccc(S(=O)(=O)N(CC(C)C)C[C@@H](O)[C@H](Cc2ccccc2)NC(=O)CCN2C(=O)c3ccccc3C2=O)cc1", "agent": "SIV", "read-out": "EC50", "cells": "CEM", "read by": "MTT", "value": "5.2 µM"}
{"SMILES": "CN1CCC(c2cc(-c3ccncc3)c(-c3ccc(F)cc3)[nH]2)CC1", "strain or isolate": "TG-PKG FLAG T761M-KO", "agent": "Toxoplasma gondii", "read-out": "EC50", "value": "4.9 µM"}
{"SMILES": "CCC(=O)C(CCCc1ccc(O)cc1)C(=O)CC", "agent": "Equine herpesvirus 4", "read-out": "MIC", "value": ">50 µg/mL"}
{"SMILES": "C=CCn1cc(-c2ccc(N3C[C@H](CNC(C)=O)OC3=O)cc2F)cn1", "strain or isolate": "UC12084 (methicillin-resistant)", "agent": "Staphylococcus epidermidis", "read-out": "MIC", "value": "0.5 µg/mL"}
{"SMILES": "CC(C)CN(C[C@@H](O)[C@H](Cc1ccccc1)NC(=O)[C@H](C(C)C)N1C(=O)c2ccccc2C1=O)S(=O)(=O)c1ccc(Br)cc1", "agent": "SIV", "read-out": "EC50", "cells": "CEM", "read by": "MTT", "value": "3.2 µM"}

For reference, 5 entries again:

SMILES | strain or isolate | dose | agent | read-out | cells | read by | value
CCC(=O)C(CCCCCCc1ccc(O)cc1Cl)C(=O)CC |  |  | Equine herpesvirus 4 | MIC |  |  | >50 µg/mL
Clc1ccccc1C(c1ccccc1)(c1ccccc1)n1ccnc1 |  | 10 µg/disc | Aspergillus ochraceus | zone |  | agar diffusion | 30 mm
C/C=C/c1cn([C@@H]2O[C@H](CO)[C@@H](O)[C@@H]2O)c(=O)[nH]c1=O | TK- | 100 µM | Herpes simplex virus 1 | inhibition | VERO | plaque count | <0%
c1ccc(CCCCn2ccc3nc(-c4ccccc4)nc-3c2)cc1 | PE515 |  | Bovine viral diarrhea virus | EC50 | MDBK | cytopathic effect | 0.009 µg/mL
CN1CCC(c2cc(-c3ccncc3)c(-c3ccc(F)cc3)[nH]2)CC1 | TG-PKG FLAG T761M-KO |  | Toxoplasma gondii | EC50 |  |  | 4.9 µM